Experimental data reported in paper PMC7865074.

Biological target: biotinylated WNV NS5 PBM peptide (West Nile virus)
Assay: holdup assay (automated high-throughput chromatography); biotinylated NS5 PBM peptide as bait against 259 human PDZ domains expressed in E. coli; read-out binding intensity (BI), mean of replicates; BI threshold 0.2 for a significant interaction

Q: How did the BI (holdup binding intensity) turn out when “Sorting nexin-27, PDZ domain (holdup construct) (from UniProt Q96L92 43-136) (domain or fragment)” was run?
A: 0.69
